A mixed list of measured activities; the numbers were collected in NIAID ChemDB.

All rows: cytotoxicity tests; cell line: 2.2.15; read-out: CC50

CCn: concentration that lowers growth or viability of the cells by n%.

compound | value
O=c1[nH]cnc2c1ncn2O[C@H]1CS[C@@H](CO)O1 | >100 µg/mL
CCOC(=O)c1c(CS(=O)c2ccccc2)n(C2CC2)c2cc(Br)c(O)c(CN=C(N)N)c12 | 111 µg/mL
Nc1ccn([C@H]2O[C@@H](CO)[C@H](O)[C@H]2F)c(=O)n1 | >200 µM
COC(=O)CSc1nnc(CS(=O)(=O)c2ccccc2)o1 | >1.5 µM
Nc1ncnc2c1ncn2[C@H]1C[C@@H](O)[C@H](O)[C@@H]1O | 466 µg/mL
O=c1[nH]c(=O)n([C@H]2O[C@@H](CO)[C@H](O)[C@H]2F)cc1/C=C/Br | >200 µM
Nc1ccn([C@@H]2CS[C@H](CO)O2)c(=O)n1 | >81 µM
Nc1ncnc2c1ncn2O[C@H]1CS[C@@H](CO)O1 | >100 µg/mL
CCOC(=O)c1c(CSc2ccccc2-[n+]2ccccc2)n(C)c2cc(Br)c(O)c(CSCCN)c12 | 8 µg/mL
C=C1[C@H](CO)[C@@H](O)C[C@@H]1n1cnc2c(=O)[nH]c(N)nc21 | 30 µM
Nc1nc2c(ncn2COCCO)c(=O)[nH]1 | 680 µM
Nc1ncnc2c1ncn2O[C@@H]1CS[C@@H](CO)O1 | >100 µg/mL
O=S(=O)(Cc1n[nH]c(=S)o1)c1ccccc1 | >7.5 µM
CCOC(=O)c1c(CS(=O)c2cccc(Cl)c2)n(C)c2cc(Br)c(O)c(CN3CCOCC3)c12 | 289 µg/mL
CCCCCCCCCCCCCCCCCCOCCOP(=O)(O)CO[C@H](CO)Cn1cnc2c(N)ncnc21 | >300 µM
CCOC(=O)c1c(CS(=O)c2ccc(F)cc2)n(C2CC2)c2cc(Br)c(O)c(Cn3ccnc3)c12 | 55.56 µg/mL
COc1ncnc2c1ncn2O[C@@H]1CS[C@@H](CO)O1 | >100 µg/mL
O=S(=O)(Cc1nnc(SCCN2CCN(c3ccccn3)CC2)o1)c1ccccc1 | >40 µM
Nc1nc(F)c2ncn(/C=C3/CC3(CO)CO)c2n1 | 31.3 µM
Nc1nc2c(ncn2OC2COC(CO)O2)c(=O)[nH]1 | >100 µg/mL
Cc1cccc(C(=O)Nc2ncc(Cl)s2)c1O | >100 µM
Nc1nc(N)c2ncn([C@H]3O[C@@H](CO)[C@H](O)[C@H]3F)c2n1 | >200 µM
O=c1[nH]c(=O)n([C@H]2O[C@@H](CO)[C@H](O)[C@H]2F)cc1F | >200 µM
COC(=O)[C@H](C)NP(=O)(OCC1C/C1=C/n1cnc2c(=O)[nH]c(N)nc21)Oc1ccccc1 | >100 µM
O=c1[nH]c(=O)n([C@H]2O[C@@H](CO)[C@H](O)[C@H]2F)cc1I | >200 µM
Nc1nc(=O)c2ncn([C@@H]3O[C@H](CO)[C@@H](O)[C@H]3O)c2c(=O)[nH]1 | 2427 µM
CCCCCSc1nnc(C(CC)S(=O)(=O)c2ccccc2)o1 | >1.5 µM
CCOC(=O)c1c(CS(=O)c2ccc(F)cc2)n(C)c2cc(Br)c(O)c(CN=C(N)N)c12 | 125 µg/mL
CC(c1n[nH]c(=S)o1)S(=O)(=O)c1ccccc1 | >7.5 µM
Cc1cn([C@H]2O[C@@H](CO)[C@H](O)[C@H]2F)c(=O)[nH]c1=O | >200 µM
Nc1ncnc2c1ncn2[C@@H]1C=C[C@H](CO)O1 | 200 µM
COC(=O)[C@H](C)NP(=O)(OCC1C/C1=C/n1cnc2c(N)ncnc21)Oc1ccccc1 | 0.3 µM
Nc1ncnc2c1ncn2[C@@H]1C=C(CCO)[C@@H](O)[C@H]1O | 1213 µM
Nc1ncnc2c1ncn2[C@H]1C[C@]12C[C@H]2CO | >100 µM
Nc1nc(=O)n([C@H]2O[C@@H](CO)[C@H](O)[C@H]2F)cc1F | >200 µM
Nc1ncnc2c1ncn2O[C@@H]1CO[C@@H](CO)O1 | >100 µg/mL
CCCCSc1nnc(C(C)S(=O)(=O)c2ccccc2)o1 | >1.5 µM
COC(=O)[C@H](C)NP(=O)(OCC1C/C1=C\n1cnc2c(N)ncnc21)Oc1ccccc1 | 4.5 µM
CCOC(=O)c1c(CS(=O)c2ccc(F)c(F)c2)n(C2CC2)c2cc(Br)c(O)c(CN3CCN(C)CC3)c12 | 34.35 µg/mL
CC(C)CCCCCCCCCCCCCCOCCCOP(=O)(O)CO[C@H](CO)Cn1cnc2c(N)ncnc21 | >300 µM
CCc1cn([C@H]2O[C@@H](CO)[C@H](O)[C@H]2F)c(=O)[nH]c1=O | >200 µM
CCOC(=O)c1c(CS(=O)c2cccc(OC)c2)n(C)c2cc(Br)c(O)c(Cc3nc(C#N)c(C#N)[nH]3)c12 | 28.74 µg/mL

Again, the opening 6 rows:

compound | value
O=c1[nH]cnc2c1ncn2O[C@H]1CS[C@@H](CO)O1 | >100 µg/mL
CCOC(=O)c1c(CS(=O)c2ccccc2)n(C2CC2)c2cc(Br)c(O)c(CN=C(N)N)c12 | 111 µg/mL
Nc1ccn([C@H]2O[C@@H](CO)[C@H](O)[C@H]2F)c(=O)n1 | >200 µM
COC(=O)CSc1nnc(CS(=O)(=O)c2ccccc2)o1 | >1.5 µM
Nc1ncnc2c1ncn2[C@H]1C[C@@H](O)[C@H](O)[C@@H]1O | 466 µg/mL
O=c1[nH]c(=O)n([C@H]2O[C@@H](CO)[C@H](O)[C@H]2F)cc1/C=C/Br | >200 µM

Conditions beyond the fields shown may differ between rows.